Earlier results, collected in patent publication US8978468B2, “Nonvisual indication of an unwanted chemical in an ingestible substance” (priority 2009, dated 2015).

Tested on: rat

N-methylmethanamine
Toxic Dose oral-rat LD50: oral-rat LD50 698 mg/kg
